Where two headings read alike, the source gives them in different places.

In assay [1] the target is Tva-HA-Fc. The following applies: parent: est. 1.0; read off a plot.
Assay [2] concerns the target Tva-HA-Fc. To be noted: parent: est. 1.0; read off a plot. The source holds these as a separate data set.

On to “A-gp85-flag wt (soluble gp85 of ALV-A RSA) R155A”, for which the ratio to parent in assay [1] came out at 0.85.
On to “A-gp85-flag wt (soluble gp85 of ALV-A RSA) K268A”, for which the ratio to parent in assay [2] came out at 0.9.
